Measurements reported in PubChem BioAssay AID504761 (Drosophila RNAi Screening Center, 2011)

Purpose: 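Genome-wide fly cell screen for genes dengue virus requires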 (primary screen)
Cells: D.Mel-2 cells from Drosophila
Knock-down reagent: long dsRNA against Drosophila genes
Treatment: infection with dengue virus type 2; dose and infection time not stated
Measured: 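Cells stained for dengue envelope protein and imaged; percent of infected cells per well on duplicate plates, ranked by infection, with stained nuclei counted for cell number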
Direction: infection score: higher = more virus-infected cells; cell count: higher = more cells in the well
Call rule: 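Very low infection ranking in both replicate wells (chance probability at most 0.065), then a retest showing infection dropped 1.5-fold or more at p below 0.05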
Calls: active = confirmed: knock-down lowers infection; inactive = not picked or not confirmed
In all, the deposit lists about 22,000 reagents; below is a random part of those that have a named target and a result. Of all reagents, 116 (0.52%) are marked active. 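Calls depend on retest data that are not deposited; infection was ranked per plate without normalising between plates; the unit of the infection score is not given.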 The raw values are shown without normalisation. Reagents against one gene are numbered here. A plus sign joins genes that one reagent is predicted to hit. The record does not give: the amount of reagent, the time to read-out.

Target gene,reagent no.,"infection score, replicate 1","infection score, replicate 2","cell count, replicate 1","cell count, replicate 2",call
CG9676,1,9.68,2.99,5959,6619,inactive
Dad,1,7.47,10.2,7086,7046,inactive
Dad,2,8.1,12,6087,5473,inactive
Ndg,1,7.69,9.2,6566,6576,inactive
Ndg,2,2.73,13.5,842,1505,inactive
BomT2,1,,14.7,385,4922,inactive
Pask,1,5.36,17.9,5728,5645,inactive
Pask,2,30.2,22.4,5855,6136,inactive
CG6678,1,3.47,2,6231,6963,inactive
CG6678,2,25.8,16.8,6180,5914,inactive
GLaz,1,4.17,7.27,6769,6026,inactive
CG6769,1,9.32,7.62,6566,7457,inactive
Rpn8,1,1.1,0.75,1187,532,inactive
Rpn8,2,25.1,7.56,4214,5292,inactive
Smvt,1,,,314,396,inactive
CG40378 (retired record),1,4.33,8.88,6079,5977,inactive
lncRNA:CR42862 + CG33229,1,14,22.3,6343,4255,inactive
CG14369,1,4.89,9.72,5987,5795,inactive
CG14369,2,9.53,3.88,6192,6284,inactive
Flad1,1,1.41,6.52,6610,6716,inactive
CG11248,1,24.1,9.75,5951,6349,inactive
Prosbeta5R1,1,3.53,12.4,1840,4521,inactive
Prosbeta5R1,2,18.9,3.8,6551,6506,inactive

Reformatted: results already given.
| Target gene | reagent no. | infection score, replicate 1 | infection score, replicate 2 | cell count, replicate 1 | cell count, replicate 2 | call |
| --- | --- | --- | --- | --- | --- | --- |
| Smvt | 1 | – | – | 314 | 396 | inactive |
| CG40378 (retired record) | 1 | 4.33 | 8.88 | 6079 | 5977 | inactive |
